The values below come from patent US10130714B2 (priority 2012, dated 2018).

The chains behind the UniProt entries cited, without tags or fusion partners.
UniProt P03470, whole entry: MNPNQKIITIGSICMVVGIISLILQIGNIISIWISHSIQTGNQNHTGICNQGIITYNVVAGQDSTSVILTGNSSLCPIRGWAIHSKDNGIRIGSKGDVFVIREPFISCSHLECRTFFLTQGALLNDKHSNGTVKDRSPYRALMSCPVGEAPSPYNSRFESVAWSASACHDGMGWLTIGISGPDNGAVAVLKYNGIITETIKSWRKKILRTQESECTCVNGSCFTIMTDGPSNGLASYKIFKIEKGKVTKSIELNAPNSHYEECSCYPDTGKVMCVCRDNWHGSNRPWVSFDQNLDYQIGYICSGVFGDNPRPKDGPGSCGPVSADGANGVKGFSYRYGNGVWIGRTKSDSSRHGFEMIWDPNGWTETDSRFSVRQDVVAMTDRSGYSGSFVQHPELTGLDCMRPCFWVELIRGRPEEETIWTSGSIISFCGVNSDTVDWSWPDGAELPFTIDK

Molecules are shown by their SMILES.

Assay [1] addresses neuraminidase of influenza A/WSN/1933 (H1N1) virus (Influenza A virus, UniProt P03470). Description: Influenza neuraminidase inhibition, fluorogenic MUNANA assay. In kind it is biochemical. Particulars: read-out: IC50, neuraminidase inhibition.
Assay [2] concerns A/WSN/1933 (H1N1) virus. The experiment in a line: Cytopathic prevention assay in MDCK cells, H1N1. In general terms: Damage to the host cells serves as the signal in cytopathic effect assays.

In the case of `CCC(CC)OC1C=C(C(=O)OCCCOC(=O)C=Cc2ccc(O)c(O)c2)CC(N)C1NC(C)=O` (stereo not shown), in assay [1], the IC50 amounted to 2400 nM. Besides, in assay [2] (protection of MDCK cells infected by A/WSN/1933, greater potency than oseltamivir), the “potency relative to oseltamivir” value is “about 6 fold”. Also, the 50% effective concentration (EC50) in assay [2] (read-out: EC50 (nM), anti-influenza activity, A/WSN/1933 (H1N1) virus, MDCK cells, table data are ranges or single assay results) is 73 nM.
In the case of `CCC(CC)OC1C=C(P(=O)(O)OCCCOC(=O)C=Cc2ccc(O)c(O)c2)CC(N)C1NC(C)=O` (stereo not shown), the half-maximal inhibitory concentration (IC50) in assay [1] was 700 nM.

As a reminder, the IC50 is the concentration that gives 50% inhibition. The EC50 is the concentration needed to bring the measured effect to its halfway point.
